Results taken from ChEMBL document CHEMBL1150695, “The synthesis of SO-3, a conopeptide with high analgesic activity derived from Conus striatus” (2003).

System: Mus musculus
Experiment: Toxicity in intracerebrally dosed mouse
Details: in vivo, other

CC[C@H](C)[C@@H]1NC(=O)[C@H](CCCNC(=N)N)NC(=O)[C@H](CO)NC(=O)[C@@H]2CSSC[C@@H]3NC(=O)[C@H](CO)NC(=O)CNC(=O)[C@H]([C@H](C)O)NC(=O)[C@H](CSSC[C@H](N)C(=O)N[C@@H](CCCCN)C(=O)N[C@@H](C)C(=O)N[C@@H](C)C(=O)NCC(=O)N[C@@H](CCCCN)C(=O)N4CCC[C@H]4C(=O)N2)NC(=O)[C@H](CSSC[C@@H](C(N)=O)NC(=O)[C@H](CCCCN)NC(=O)CNC(=O)[C@H](CO)NC(=O)[C@H](CCCNC(=N)N)NC3=O)NC(=O)[C@H](CC(N)=O)NC(=O)[C@H](Cc2ccc(O)cc2)NC(=O)[C@H](C)NC1=O
LD50: 13.5 mg/kg
